Test results reported in US20230128969A1, “POLYURETHANE FOAM COMPOSITIONS WITH ANTIMICROBIAL PROPERTIES” (SANITIZED AG, priority 2020, published 2023).

Tested on: Aspergillus niger-ATCC 9642, Penicillium funiculosum-ATCC 11797, Chaetomium globosum-ATCC 6205, Trichoderma virens-ATCC 9645, Aureobasidium pullulans-ATCC 15233
Assay: ASTM G21 strengthened (fungal growth on specimen, 28 days)
Assay type: cell-based, mold fungi (composite spore suspension)
Details: memory foam A1

Trisodium N-(1-carboxylato-ethyl) imidodiacetate
G21 (ASTM G21 strengthened rating) (0.2 pbw (B) with 0.5 pbw (C) dimethyltetradecyl(3-(trimethoxysilyl)propyl)ammonium chloride, (E) Diglyme 0.8 pbw): 3 (30 to 60% of the surface is covered with mold fungi)
G21 (ASTM G21 strengthened rating) (0.4 pbw (B) with 0.5 pbw (C) dimethyltetradecyl(3-(trimethoxysilyl)propyl)ammonium chloride, (E) Water 0.6 pbw): 4 (at least 60% of the surface is covered with mold fungi)
